From patent US12378521B2, “Method for enhancing production of genetically engineered autologous T cells” (AMGEN INC., priority 2020, dated 2025) come the findings set out here.

The test system of the assay is apheresed donor cells. Nature of the assay: Cell growth and viability, IL-2 withdrawal (Example 8). It is filed as cell-based, human. The conditions noted are these: IL-2 withdrawal at Day 5 and Day 6.

On to “IL-2: soluble cytokine, 300 IU/ml in OpTmizer complete media”, for which the “Cell growth and viability” value was “minimal or no impact on cell growth or viability”.
